Experimental data from publication PMC6803667, “Binding site plasticity in viral PPxY Late domain recognition by the third WW domain of human NEDD4” (Scientific Reports, 2019).

The chains behind the UniProt entries cited, without tags or fusion partners. Residues count along the entry.
UniProt P46937, 165-209 limits assumed: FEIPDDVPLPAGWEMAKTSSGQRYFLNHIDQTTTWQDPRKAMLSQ
UniProt P46937, 228-271 limits assumed: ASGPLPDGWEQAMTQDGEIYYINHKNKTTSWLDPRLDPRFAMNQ
UniProt P46934, 834-878 limits assumed: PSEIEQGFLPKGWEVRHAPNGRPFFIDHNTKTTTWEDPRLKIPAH

Tests used:
[1] = target: hYAP-WW2 (Homo sapiens, UniProt P46937); assay: ITC, direct titration of peptide ligands into YAP-WW2; conditions: 25 °C, 20 mM sodium phosphate pH 7.0, n. b. = no binding
[2] = target: T1, hNEDD4-WW3 (Homo sapiens, UniProt P46934); assay: ITC, direct titration of peptide ligands into hNEDD4-WW3; conditions: 25 °C, 20 mM sodium phosphate pH 7.0, n. b. = no binding, b64 also names displacement experiments for HTLV1-ter and Ebola-ter
[3] = target: hYAP-WW1 (Homo sapiens, UniProt P46937); assay: ITC, direct titration of peptide ligands into YAP-WW1; conditions: 25 °C, 20 mM sodium phosphate pH 7.0, n. b. = no binding
[4] = target: T1, hNEDD4-WW3; assay: Titration followed by fluorescence spectroscopy, hNEDD4-WW3; type: binding; conditions: 20 mM sodium phosphate pH 7.0, 25 °C

CC[C@H](C)[C@H](NC(C)=O)C(=O)N[C@@H](CC(C)C)C(=O)N1CCC[C@H]1C(=O)N[C@H](C(=O)N[C@@H](C)C(=O)N1CCC[C@H]1C(=O)N1CCC[C@H]1C(=O)N[C@@H](CCC(=O)O)C(=O)N[C@@H](Cc1ccc(O)cc1)C(N)=O)[C@@H](C)O
Kd [1]: n. b.
Kd [2]: n. b.
Kd ([2]; listed as Ebolater): no binding could be detected
Kd [3]: n. b.
binding detected by fluorescence spectroscopy [4]: no binding could be detected

The match of structure and compound is tentative.
